# Experimental data: PubChem BioAssay AID1259414 (Drosophila RNAi Screening Center, 2018)
# Screen: 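Genome-wide screen for host control of endosymbiont load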 (primary screen)
# Cells: Drosophila JW18 cells infected with Wolbachia
# Reagent: long dsRNA against Drosophila genes, 0.25 µg dsRNA per well of a 384-well plate
# Duration: 5 days
# Treatment: cells persistently infected with Wolbachia before knock-down; no added drug
# Read-out: 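Automated imaging of bacterial rRNA staining divided by host cell count, reported as plate-normalised robust z-score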
# Direction: Wolbachia per cell robust z: higher = more Wolbachia per host cell than the plate typical
# Rule for the call: 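Hit when robust z is 1.5 or more, or -1.5 or less, in at least two of three replicates; excludes dsRNAs with several or no targets, genes not expressed in JW18 and well A1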
# In all, the deposit lists about 24,000 reagents; shown is a random part of those with a known target gene and a result. Of all reagents, about 1,210 (5%) were called active. 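Inactive calls also include excluded dsRNAs with several or no targets, genes unexpressed in JW18, and well A1, regardless of score.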
Target gene,amplicon,"Wolbachia per cell robust z, rep 1","Wolbachia per cell robust z, rep 2","Wolbachia per cell robust z, rep 3",call
Tctp (GeneID 41341),DRSC15649,0.43,-5.04,-5.68,inactive
Tctp (GeneID 41341),DRSC29100,0.492,0.51,-0.811,inactive
fal (GeneID 43927),DRSC11087,-1.24,-7.39,0.756,inactive
CG10809 (GeneID 39159),DRSC09802,-3.58,-0.111,-1.3,inactive
CG10809 (GeneID 39159),DRSC29041,-0.778,0.0719,0.485,inactive
CG17193 (GeneID 50044),DRSC15187,0.0926,0.443,0.665,inactive
bru1 (GeneID 34648),DRSC01234,0.88,0.518,0.586,inactive
bru1 (GeneID 34648),DRSC01236,0.278,1.1,-0.26,inactive
bru1 (GeneID 34648),DRSC01237,0.623,0.648,0.551,inactive
bru1 (GeneID 34648),DRSC01238,0.307,0.58,0.925,inactive
bru1 (GeneID 34648),DRSC03485,1.96,1.49,0.0776,inactive
CG14671 (GeneID 40671),DRSC12257,-0.45,0.179,-1.51,inactive
JTBR (GeneID 38235),DRSC08667,-2.59,-0.859,0.115,inactive
Spn42Da (GeneID 49805),DRSC05025,-0.735,-1.36,-0.319,inactive
Spn42Da (GeneID 49805),DRSC40805,-1.33,0.274,-1.19,inactive
CG32554 (GeneID 32767),DRSC22713,0.345,0.632,-0.821,inactive
CG32554 (GeneID 32767),DRSC29616,-0.263,-1.93,-0.201,inactive

Targets above whose gene name begins with T or t:
Target gene,amplicon,"Wolbachia per cell robust z, rep 1","Wolbachia per cell robust z, rep 2","Wolbachia per cell robust z, rep 3",call
Tctp (GeneID 41341),DRSC15649,0.43,-5.04,-5.68,inactive
Tctp (GeneID 41341),DRSC29100,0.492,0.51,-0.811,inactive

Additional results follow:
Target gene,amplicon,"Wolbachia per cell robust z, rep 1","Wolbachia per cell robust z, rep 2","Wolbachia per cell robust z, rep 3",call
MED20 (GeneID 43952),DRSC03463,-2.33,0.0532,0.0625,inactive
CG42367 (GeneID 318998),DRSC21388,0.602,0.959,-0.769,inactive
CG42367 (GeneID 318998),DRSC24728,0.547,0.363,0.964,inactive
NimB3 (GeneID 3885611),DRSC37871,-1,-0.401,-0.302,inactive
CCHa2-R (GeneID 35535),DRSC04870,0.593,-0.205,-7.85,inactive
CCHa2-R (GeneID 35535),DRSC04871,-3.11,0.0513,0.766,inactive
CG4658 (GeneID 34325),DRSC02768,-5.63,-4.06,0.0793,active
Liprin-alpha (GeneID 249072),DRSC02132,0.0993,0.781,-0.253,inactive
Liprin-alpha (GeneID 249072),DRSC26919,-2.04,-1.26,-1.46,inactive
CG13482 (GeneID 39577),DRSC10024,-0.348,-0.391,-1.64,inactive
CG13482 (GeneID 39577),DRSC23975,0.393,-0.736,0.322,inactive
CG13482 (GeneID 39577),DRSC41290,0,0.315,-0.0265,inactive
